PubChem BioAssay AID504761 – Drosophila RNAi Screening Center – 2011

Assay: 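Fly genes whose silencing reduces dengue virus type 2 infection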 (primary screen)
Cell system: D.Mel-2 cells from Drosophila
Knock-down reagent: long dsRNA against Drosophila genes
Challenge: infection with dengue virus type 2; dose and infection time not stated
Measurement: 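Cells stained for dengue envelope protein and imaged; percent of infected cells per well on duplicate plates, ranked by infection, with stained nuclei counted for cell number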
Scale: infection score: higher = more virus-infected cells; cell count: higher = more cells in the well
Call rule: 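Very low infection ranking in both replicate wells (chance probability at most 0.065), then a retest showing infection dropped 1.5-fold or more at p below 0.05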
Meaning of the calls: active = confirmed: knock-down lowers infection; inactive = not picked or not confirmed
The deposit covers about 22,000 reagents; shown is a random part of those with a known target gene and a result. Of all reagents, 116 (0.52%) are marked active. 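Calls depend on retest data that are not deposited; infection was ranked per plate without normalising between plates; the unit of the infection score is not given.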 Raw values are not corrected between plates. A number with no mark means an inactive call. Names joined by + are all predicted targets of the reagent. Not stated in the record: the amount of reagent, the time to read-out.

| target | dsRNA | infection score, replicate 1 | infection score, replicate 2 | cell count, replicate 1 | cell count, replicate 2 |
| --- | --- | --- | --- | --- | --- |
| CG5056 | DRSC02808 | 17.9 | 12.5 | 6013 | 5642 |
| sbb (scribbler) | DRSC05723 | 0.92 | 4.88 | 5682 | 5594 |
| sbb (scribbler) | DRSC07676 | 13 | 26.9 | 5579 | 5579 |
| sbb (scribbler) | DRSC28911 | 24.1 | 15.3 | 5426 | 4361 |
| GM130 (Golgi matrix protein 130 kD) | DRSC04617 | 14.5 | 18.2 | 6287 | 5640 |
| CG31808 | DRSC22962 | 1.05 | 0.82 | 5719 | 6597 |
| CG31808 | DRSC29167 | 11.3 | 21.7 | 5320 | 5455 |
| CG7668 | DRSC10901 | 0.69 | 9.96 | 289 | 6670 |
| scaf6 (SR-related CTD associated factor 6) | DRSC10075 | 2.91 | 9.93 | 2820 | 6910 |
| scaf6 (SR-related CTD associated factor 6) | DRSC10676 | 1.21 | 1.08 | 6759 | 7111 |
| CG8568 | DRSC20113 | 3.76 | 7.49 | 6194 | 7340 |
| CG8568 | DRSC26687 | 3.42 | 1.13 | 6224 | 5925 |
| CG2187 | DRSC15425 | 6.12 | – | 6126 | 407 |
| CG2187 | DRSC25548 | 2.77 | 3.29 | 6322 | 6077 |
| Pen (Pendulin) | DRSC03396 | 15.7 | 7.79 | 6180 | 6533 |
| Ku80 | DRSC02699 | 4.45 | 7.21 | 6915 | 6398 |
| Ku80 | DRSC26861 | 2.63 | 5.19 | 6312 | 6128 |
| CG9338 | DRSC03213 | 43.8 | 33.7 | 4265 | 1506 |
| CG9338 | DRSC24503 | 4.74 | 5.54 | 6240 | 5725 |
| CG11158 | DRSC19389 | 13.7 | 13.2 | 6089 | 6481 |
| AstC (Allatostatin C) | DRSC02403 | 18.7 | 2.37 | 4376 | 6300 |
| CG44001 + CG33995 | DRSC00853 | 2.39 | 1.73 | 5899 | 5909 |
| CG44001 + CG33995 | DRSC02898 | 7.67 | 7.26 | 6092 | 6298 |
| CG10344 | DRSC04066 | – | – | 415 | 410 |
| CG10344 | DRSC24394 | 2.78 | 7.36 | 6157 | 5900 |
| CG6761 | DRSC10705 | 6.13 | 5.34 | 6557 | 6333 |
| CG11458 | DRSC23399 | 3.26 | 3.2 | 6720 | 5807 |
| Parp16 (Poly(ADP-ribose) polymerase 16) | DRSC06597 | 10.1 | 18.5 | 6384 | 6431 |
| Parp16 (Poly(ADP-ribose) polymerase 16) | DRSC27048 | 3.65 | 4.76 | 6217 | 6216 |
| Tsp42Ef (Tetraspanin 42Ef) | DRSC06191 | 4.81 | 7.21 | 6137 | 4368 |
| Dpp10 (Dipeptidyl peptidase 10) | DRSC00942 | 2.36 | 0.81 | 6022 | 5538 |
| Dpp10 (Dipeptidyl peptidase 10) | DRSC02139 | 2.99 | 6.13 | 6147 | 7060 |
| feo (fascetto) | DRSC19398 | 38.4 | 6.96 | 6032 | 6579 |
| feo (fascetto) | DRSC23773 | 1.43 | 2.89 | 5524 | 5060 |
| CG3198 | DRSC18292 | 4.02 | 4.01 | 6286 | 6661 |
| CG3198 | DRSC24615 | 3.28 | 3.42 | 6129 | 5610 |
| CG12746 | DRSC12218 | 3.9 | 13.3 | 6829 | 6181 |
| Alg12 (Alg12 alpha-1,6-mannosyltransferase) | DRSC16416 | 2.6 | 1.24 | 5999 | 6228 |
| Echs1 (Enoyl-CoA hydratase, short chain 1) | DRSC06999 | 9.27 | 6.69 | 5769 | 7085 |
